Assay results reported in patent US9822115B2, “Nitrogen containing compounds and their use as antibacterial agents” (WOCKHARDT LIMITED, priority 2014, dated 2017).
Like-named read-outs stand apart in the source and are kept apart here.

The chains behind the UniProt entries cited, without tags or fusion partners. Residues count along the entry.
UniProt P0AD64, 22-286 R39S/G234A/E235K: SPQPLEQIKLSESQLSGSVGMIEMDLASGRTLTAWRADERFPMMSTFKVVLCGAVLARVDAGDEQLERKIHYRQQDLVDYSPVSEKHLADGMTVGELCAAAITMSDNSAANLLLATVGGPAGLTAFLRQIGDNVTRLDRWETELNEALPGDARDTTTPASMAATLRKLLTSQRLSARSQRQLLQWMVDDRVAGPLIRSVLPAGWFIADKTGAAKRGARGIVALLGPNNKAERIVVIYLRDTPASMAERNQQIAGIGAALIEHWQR

Target: T1, Class A beta-lactamase, K. pneumoniae ATCC 700603 (SHV 18) (Klebsiella pneumoniae, UniProt P0AD64, E235K/G234A/R39S)
T1 construct: preincubated mixture of crude enzyme and the agents; endogenous in cells; host or cells: K. pneumoniae ATCC 700603
Experiment: biochemical
Assay type: biochemical
Protocol: Determination of enzyme inhibition activity: Concentration of the inhibitor required to inhibit 50% of enzymatic activity was measured by adding a chromogenic substrate, Nitrocefin (100 uM, 5 min) to the preincubated mixture of crude enzyme and the agents (37° C., 10 min). Absorbance was measured at 485 nm by UV-spectrophotometer. The IC50 was calculated by plotting absorbance against concentration through Sigmoidal dose response curve using Graph Pad software.
The enzyme inhibition was expressed as IC50.

[1] = Class A K. pneumoniae ATCC 700603 (SHV 18), read-out: Beta-lactamase enzyme inhibition IC50

Compound | IC50 [1] [nM] | IC50 [nM]
sodium salt of (2S,5R)-succinic acid tert-butyl ester 4-{2-oxo-2-[N′-(7-oxo-6-sulphooxy-1,6-diaza-bicyclo[3.2.1]octane-2-carbonyl)-hydrazino]ethyl}-phenyl ester [Example 27] | 18 | –
sodium salt of (2S,5R)-sulfuric acid mono-[2-(N′-(3,3-diphenyl-propionyl)-hydrazinocarbonyl)-7-oxo-1,6-diaza-bicyclo[3.2.1]oct-6-yl]ester [Example 7] | 70 | –
Nc1ccc(CC(=O)NNC(=O)[C@@H]2CC[C@@H]3CN2C(=O)N3OS(=O)(=O)O)c(F)c1 [Example 17, (2S,5R)-sulfuric acid mono-[2-(N′-(4-amino-2-fluorophenyl-acetyl)-hydrazinocarbonyl)-7-oxo-1,6-diaza-bicyclo[3.2.1]oct-6-yl]ester] | – | 18
